Assay results from patent US12172959B2, “Mono- or di-substituted indole derivatives as dengue viral replication inhibitors” (priority 2015, dated 2024).

Experiments:
Format in all cases: cell-based, Dengue virus
DENV-2 16681 strain = assay: DENV-2 antiviral assay (eGFP fluorescence, Vero cells); details: SI=CC50/EC50, DENV-2 antiviral assay
Experimental: The antiviral activity of all the compounds of the invention was tested against the DENV-2 16681 strain which was labeled with enhanced green fluorescent protein (eGPF; Table 1). The culture medium consists of minimal essential medium supplemented with 2% of heat-inactivated fetal calf serum, 0.04% gentamycin (50 mg/mL) and 2 mM of L-glutamine. Vero cells, obtained from ECACC, were suspended in culture medium and 25 μL was added to 384-well plates (2500 cells/well), which already contain the antiviral compounds. Typically, these plates contain a 5-fold serial dilution of 9 dilution steps of the test compound at 200 times the final concentration in 100% DMSO (200 nL). […] Finally, each plate contains wells which are assigned as virus controls (containing cells and virus in the absence of compound), cell controls (containing cells in the absence of virus and compound) and medium controls (containing medium in the absence of cells, virus and compounds). To the wells assigned as medium control, 25 μL of culture medium was added instead of Vero cells. Once the cells were added to the plates, the plates were incubated for 30 minutes at room temperature to allow the cells to distribute evenly within the wells. Next, the plates were incubated in a fully humidified incubator (37° C., 5% CO2) until the next day. Then, DENV-2 strain 16681, labeled with eGFP, was added at a multiplicity of infection (MOI) of 0.5. Therefore, 15 μL of virus suspension was added to all the wells containing test compound and to the wells assigned as virus control. In parallel, 15 μL of culture medium was added to the medium and cell controls. Next, the plates were incubated for 3 days in a fully humidified incubator (37° C., 5% CO2). At the day of the read out, the eGFP fluorescence was measured using an automated fluorescence microscope at 488 nm (blue laser). Using an in-house LIMS system, inhibition dose response curves for each compound were calculated and the half maximal effective concentration (EC50) was determined. Therefore, the percent inhibition (I) for every test concentration is calculated using the following formula: I=100*(ST−SCC)/(SVC−SCC); ST, SCC and SVC are the amount of eGFP signal in the test compound, cell control and virus control wells, respectively. The EC50 represents the concentration of a compound at which the virus replication is inhibited with 50%, as measured by a 50% reduction of the eGFP fluorescent intensity compared to the virus control. The EC50 is calculated using linear interpolation.

[1] = test system: DENV-4 strain SG/06K2270DK1/2005 (Eden); assay: Tetravalent RT-qPCR assay Protocol A, serotype 4 EDEN; details: RT-qPCR serotype 4 EDEN, ratio CC50 / EC50
Experimental: (§1) The antiviral activity of the compounds of the invention was tested against DENV-1 strain TC974#666 (NCPV; Table 6), DENV-2 strain 16681 (Table 7), DENV-3 strain H87 (NCPV; Table 8) and DENV-4 strains H241 (NCPV; Table 9A) and SG/06K2270DK1/2005 (Eden; Table 9B) in a RT-qPCR assay. Therefore, Vero cells were infected with either DENV-1, or -2, or -3, or -4 in the presence or absence of test compounds. At day 3 post-infection, the cells were lysed and cell lysates were used to prepare cDNA of both a viral target (the 3′UTR of DENV; Table 2) and a cellular reference gene (β-actin, Table 2). Subsequently, a duplex real time PCR was performed on a Lightcycler480 instrument. The generated Cp value is inversely proportional to the amount of RNA expression of these targets. Inhibition of DENV replication by test compound results in a shift of Cp's for the 3′UTR gene. On the other hand, if a test compound is toxic to the cells, a similar effect on β-actin expression will be observed. The comparative ΔΔCp method is used to calculate EC50, which is based on the relative gene expression of the target gene (3′UTR) normalized with the cellular housekeeping gene (β-actin).
(§2) The culture medium consisted of minimal essential medium supplemented with 2% of heat-inactivated fetal calf serum, 0.04% gentamycin (50 mg/mL) and 2 mM of L-glutamine. Vero cells, obtained from ECACC, were suspended in culture medium and 75 μL/well was added in 96-well plates (10000 cells/well), which already contain the antiviral compounds. […] In addition, each plate contains wells which are assigned as virus controls (containing cells and virus in the absence of compound) and cell controls (containing cells in the absence of virus and compound). Once the cells were added in the plates, the plates were incubated in a fully humidified incubator (37° C., 5% CO2) until the next day. Dengue viruses serotype-1, 2, 3 and 4 were diluted in order to obtain a Cp of ˜22-24 in the assay. Therefore, 25 μL of virus suspension was added to all the wells containing test compound and to the wells assigned as virus control. In parallel, 25 μL of culture medium was added to the cell controls. Next, the plates were incubated for 3 days in a fully humidified incubator (37° C., 5% CO2). After 3 days, the supernatant was removed from the wells and the cells were washed twice with ice-cold PBS (˜100 μL). The cell pellets within the 96-well plates were stored at −80° C. for at least 1 day. Next, RNA was extracted using the Cells-to-CT™ lysis kit, according to the manufacturer's guideline (Life Technologies). The cell lysates can be stored at −80° C. or immediately used in the reverse transcription step.
(§3) In preparation of the reverse transcription step, mix A (table 3A) was prepared and 7.57 μL/well was dispensed in a 96-well plate. After addition of 5 μL of the cell lysates, a five minute denaturation step at 75° C. was performed (table 3B). Afterwards, 7.43 μL of mix B was added (table 3C) and the reverse transcription step was initiated (table 3D) to generate cDNA.
(§4) Finally, a RT-qPCR mix was prepared, mix C (table 4A), and 22.02 μL/well was dispensed in 96-well LightCycler qPCR plates to which 3 μL of cDNA was added and the qPCR was performed according to the conditions in table 4B on a LightCycler 480.
(§5) Using the LightCycler software and an in-house LIMS system, dose response curves for each compound were calculated and the half maximal effective concentration (EC50) and the half maximal cytotoxic concentration (CC50) were determined.

DENV-4 strain H241 = assay: Tetravalent RT-qPCR assay Protocol A, serotype 4 H241; details: RT-qPCR serotype 4 H241
Experimental: as §1, §2, §3, §4, §5

DENV-1 strain TC974#666 = assay: Tetravalent RT-qPCR assay Protocol A, serotype 1; details: RT-qPCR serotype 1 TC974#666
Experimental: as §1, §2, §3, §4, §5

DENV-3 strain H87 = assay: Tetravalent RT-qPCR assay Protocol A, serotype 3; details: RT-qPCR serotype 3 H87
Experimental: as §1, §2, §3, §4, §5

DENV-2 strain 16681 = assay: Tetravalent RT-qPCR assay Protocol A, serotype 2; details: RT-qPCR serotype 2 16681
Experimental: as §1, §2, §3, §4, §5

Structure (SMILES)	SI (DENV-2 16681 strain)	SI [1]	SI (DENV-4 strain H241)	SI (DENV-1 strain TC974#666)	SI (DENV-3 strain H87)	SI (DENV-2 strain 16681)
COc1cc(NC(C(=O)c2c[nH]c3cc(F)ccc23)c2ccc(Cl)cc2OC)cc(S(C)(=O)=O)c1 (single isomer, unassigned) [Compound 1A, 2-(4-chloro-2-methoxyphenyl)-1-(6-fluoro-1H-indol-3-yl)-2-((3-methoxy-5-(methylsulfonyl)phenyl)amino)ethanone]	19700	1927				
COc1cc(NC(C(=O)c2c[nH]c3c(C)c(F)ccc23)c2ccc(Cl)cc2OC)cc(S(C)(=O)=O)c1 (single isomer, unassigned) [Compound 2A, 2-(4-chloro-2-methoxyphenyl)-1-(6-fluoro-7-methyl-1H-indol-3-yl)-2-((3-methoxy-5-(methylsulfonyl)phenyl)amino)ethanone]	22000	3913				
COc1cc(NC(C(=O)c2c[nH]c3cc(OC)ccc23)c2ccc(Cl)cc2OC)cc(S(C)(=O)=O)c1 (single isomer, unassigned) [Compound 3A, 2-(4-chloro-2-methoxyphenyl)-1-(6-methoxy-1H-indol-3-yl)-2-((3-methoxy-5-(methylsulfonyl)phenyl)amino)ethanone]	29800	1802	37	1360	67	9970
COc1cc(NC(C(=O)c2c[nH]c3cc(OC)c(C)cc23)c2ccc(Cl)cc2OC)cc(S(C)(=O)=O)c1 (single isomer, unassigned) [Compound 4A, 2-(4-chloro-2-methoxyphenyl)-2-((3-methoxy-5-(methyl-sulfonyl)phenyl)amino)-1-(6-methoxy-5-methyl-1H-indol-3-yl)ethanone]	16900	>4520				
COc1cc(NC(C(=O)c2c[nH]c3cc(OC)c(F)cc23)c2ccc(Cl)cc2OC)cc(S(C)(=O)=O)c1 (single isomer, unassigned) [Compound 5A, 2-(4-chloro-2-methoxyphenyl)-1-(5-fluoro-6-methoxy-1H-indol-3-yl)-2-((3-methoxy-5-(methylsulfonyl)phenyl)amino)ethanone]	12900	1878				
COc1cc(NC(C(=O)c2c[nH]c3c(C)c(OC)ccc23)c2ccc(Cl)cc2OC)cc(S(C)(=O)=O)c1 (single isomer, unassigned) [Compound 6A, 2-(4-chloro-2-methoxyphenyl)-2-((3-methoxy-5-(methyl-sulfonyl)phenyl)amino)-1-(6-methoxy-7-methyl-1H-indol-3-yl)ethanone]	>65500	>24085				
COc1cc(NC(C(=O)c2c[nH]c3cc(F)c(C)cc23)c2ccc(Cl)cc2OC)cc(S(C)(=O)=O)c1 (single isomer, unassigned) [Compound 7B, 2-(4-chloro-2-methoxyphenyl)-1-(6-fluoro-5-methyl-1H-indol-3-yl)-2-((3-methoxy-5-(methylsulfonyl)phenyl)amino)ethanone]	18500		53	6600	240	23600
COc1cc(NC(C(=O)c2c[nH]c3ccc(C(F)(F)F)cc23)c2ccc(Cl)cc2OC)cc(S(C)(=O)=O)c1 (single isomer, unassigned) [Compound 8B, 2-(4-chloro-2-methoxyphenyl)-2-((3-methoxy-5-(methyl-sulfonyl)phenyl)amino)-1-(5-(trifluoromethyl)-1H-indol-3-yl)ethanone]	>40900		122	3130	609	23400
COc1cc(NC(C(=O)c2c[nH]c3ccc(OC(F)(F)F)cc23)c2ccc(Cl)cc2OC)cc(S(C)(=O)=O)c1 (single isomer, unassigned) [Compound 9A, 2-(4-chloro-2-methoxyphenyl)-2-((3-methoxy-5-(methyl-sulfonyl)phenyl)amino)-1-(5-(trifluoromethoxy)-1H-indol-3-yl)ethanone]	>37500		121	13300	474	31700
COc1cc(NC(C(=O)c2c[nH]c3cc(OC)c(OC(F)(F)F)cc23)c2ccc(Cl)cc2OC)cc(S(C)(=O)=O)c1 (single isomer, unassigned) [Compound 10A, 2-(4-chloro-2-methoxyphenyl)-2-((3-methoxy-5-(methylsulfonyl)phenyl)amino)-1-(6-methoxy-5-(trifluoromethoxy)-1H-indol-3-yl)ethanone]	22600		127	5670	280	28200
COc1cc(NC(C(=O)c2c[nH]c3c(C)cc(OC(F)(F)F)cc23)c2ccc(Cl)cc2OC)cc(S(C)(=O)=O)c1 (single isomer, unassigned) [Compound 11A, 2-(4-chloro-2-methoxyphenyl)-2-((3-methoxy-5-(methylsulfonyl)phenyl)amino)-1-(7-methyl-5-(trifluoromethoxy)-1H-indol-3-yl)ethanone]	30100		>250	>22100	>2630	>69000
